# PSTVd loop 6 mutant pool in Nicotiana benthamiana

PSTVd intermediate strain, loop 6: wild type UGACCGCGAG, pool pattern UNNNCGNNNG; upper and lower strand joined, each 5' to 3', the first 5 letters being the upper strand, closing pairs included.

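A pool of all variants was put on leaves of three Nicotiana benthamiana plants. Samples came from the inoculated region at 5 days, the leaf margin at 10 and upper systemic leaves at 12.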

Values are reads per thousand in the sample; higher means more abundant, 0 means not found. Each value is the mean of three plants. "Pool" is the share in the plasmid pool used as inoculum, on the same scale. The inoculated region was read from the minus strand, the other sites from the plus strand. IR is the inoculated region, LM the leaf margin, Sys the systemic leaves. Sequences that differ at fixed positions probably stem from PCR or sequencing errors, and defective variants can be carried along by functional ones. With 36,220-57,551 reads a sample, very low values are single reads. For reference, wild type rose from 20.7 per thousand in the pool to 195, 198, 203 (inoculated region), 629, 591, 734 (leaf margin) and 942, 870, 868 (systemic leaves).

- UAAACGGCAG (pool 0.118) = IR 0.631; LM 0.0704; Sys 0
- UGACCGGUUG (pool 0.405) = IR 0.262; LM 0.342; Sys 0.170
- UACGCGCGUG (pool 0.235) = IR 0.0656; LM 0; Sys 0
- UUCCCGGAUG (pool 0.314) = IR 0.0907; LM 0; Sys 0
- UAAGCGUAAG (pool 0.105) = IR 0.661; LM 0.0952; Sys 0.0263
- UCGUCGUUCG (pool 0.248) = IR 0.107; LM 0.0184; Sys 0
- UAGACGUGGG (pool 0.209) = IR 0.132; LM 0; Sys 0
- UGGCCGGCCG (pool 0.222) = IR 0.113; LM 0.00773; Sys 0
- UGUACGGAAG (pool 0.0784) = IR 0.728; LM 0.0859; Sys 0
- UGCUCGUUUG (pool 0.431) = IR 0.0958; LM 0.0261; Sys 0
- UUGGCGCGGG (pool 0.366) = IR 0.119; LM 0.00773; Sys 0
- UGAUCGCUAG (pool 0.0784) = IR 0.125; LM 0; Sys 0
- UGAACUCUAG (pool 0.0131) = IR 0; LM 0; Sys 0
- UGUCCGGUCG (pool 0.261) = IR 0.0762; LM 0; Sys 0
- UGUCCGAACG (pool 0.288) = IR 0.0600; LM 0; Sys 0
- UCAGCGUGAG (pool 0.209) = IR 0.0715; LM 0; Sys 0
- UAGACGCUCG (pool 0.235) = IR 0.0952; LM 0; Sys 0
- UCAGCGCGGG (pool 0.222) = IR 0.0710; LM 0; Sys 0
- UCUGCGUAGG (pool 0.471) = IR 0.0772; LM 0.00773; Sys 0
- UGUGCGGUCG (pool 0.288) = IR 0.112; LM 0; Sys 0
- UGAGCGGAUG (pool 0.235) = IR 0.636; LM 0.0644; Sys 0.0330
- UGGACGAAUG (pool 0.248) = IR 0.0951; LM 0.0169; Sys 0
- UGCUCGGUGG (pool 0.248) = IR 0.119; LM 0; Sys 0
- UCUGCGUUAG (pool 0.379) = IR 0.0907; LM 0.0324; Sys 0
- UGCACGGGAG (pool 0.314) = IR 0.779; LM 0.0762; Sys 0
- UCAGCGCCUG (pool 0.183) = IR 0.0719; LM 0.00920; Sys 0.00684
- UGAACGUGAG (pool 0.222) = IR 3.54; LM 1.40; Sys 0.455
- UGCGCGCGUG (pool 0.222) = IR 0.0893; LM 0.00773; Sys 0
- UGAUCGACGG (pool 0.248) = IR 0.125; LM 0.0169; Sys 0.00684
- UGUUCGGGGG (pool 0.209) = IR 0.0475; LM 0.00773; Sys 0
- UUUACGCAAG (pool 0.144) = IR 0.692; LM 0; Sys 0.00673
- UACGCGGAUG (pool 0.209) = IR 0.0768; LM 0; Sys 0
- UAGCCGGUAG (pool 0.235) = IR 0.0909; LM 0.0184; Sys 0
- UUGGCGGUAG (pool 0.824) = IR 0.171; LM 0; Sys 0.0205
- UACAGGCCUG (pool 0.0131) = IR 0; LM 0; Sys 0
- UCCACGGACG (pool 0.301) = IR 0.624; LM 0.0868; Sys 0

The opening 2 entries, copied out:

- UAAACGGCAG (pool 0.118): IR 0.631; LM 0.0704; Sys 0
- UGACCGGUUG (pool 0.405): IR 0.262; LM 0.342; Sys 0.170

Data from the supplement of Wu et al. 2024, doi:10.1371/journal.ppat.1012142.